Source: US20220380347A1

By UniProt entry, the sequences of proteins in these tests, tags left out. Residues count along the entry.
UniProt P0C6X1, 2966-3267 limits assumed: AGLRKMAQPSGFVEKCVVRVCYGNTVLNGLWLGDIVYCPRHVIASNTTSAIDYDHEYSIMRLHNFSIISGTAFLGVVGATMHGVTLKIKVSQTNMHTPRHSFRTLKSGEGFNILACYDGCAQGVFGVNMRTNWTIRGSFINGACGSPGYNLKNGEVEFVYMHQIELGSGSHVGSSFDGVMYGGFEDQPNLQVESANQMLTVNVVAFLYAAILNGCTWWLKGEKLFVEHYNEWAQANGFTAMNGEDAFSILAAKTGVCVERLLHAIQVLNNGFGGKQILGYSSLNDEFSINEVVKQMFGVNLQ

Tests used:
229E Mpro = 229E Mpro (Human coronavirus 229E, UniProt P0C6X1); assay: 229E Mpro enzymatic assay; details: read-out: 229E Mpro EC50
HCov OC43 = details: read-out: OC43 IC50 (uM) MEDIAN

SMILES	EC50 (229E Mpro) [µM]	IC50 (HCov OC43) [µM]
CC(C)(C)c1ccc(N(C(=O)[C@H]2COCCN2C#N)C(C(=O)NC2CCC(F)(F)CC2)c2cccnc2)cc1 (single isomer, unassigned) [1297 Isomer 1]	< 2	10 to 30
CC(C)(C)c1ccc(N(C(=O)[C@H]2C[C@@H](O)CN2C#N)C(C(=O)NC2CCCCC2)c2cncc(C(F)(F)F)c2)cc1 (single isomer, unassigned) [683 Isomer 1]	2 to 10	2 to 10
CC(C)(C)c1ccc(N(C(=O)[C@H]2C[C@@H](O)CN2C#N)C(C(=O)NC2CCCCC2)c2cncc3ccccc23)cc1 (single isomer, unassigned) [667 Isomer 2]	< 2	< 2
CC(C)(C)NC(=O)C(c1cccnc1)N(C(=O)[C@H]1C[C@@H](O)CN1C#N)c1ccc(C(C)(C)C)cc1 (single isomer, unassigned) [579 Isomer 2]	2 to 10	10 to 30
O=C(NC1CCC(F)(F)CC1)C(c1cnccc1C(F)(F)F)N(C(=O)c1cnc[nH]1)c1ccc(C2CC2)cc1F (single isomer, unassigned) [1338 Isomer 1]	< 2	2 to 10
N#CN1C[C@@H]2CC[C@@H]2[C@@H]1C(=O)N(c1ccc(S(F)(F)(F)(F)F)cc1)C(C(=O)NC1CCC(F)(F)CC1)c1cncc(F)c1 (single isomer, unassigned) [1097 Isomer 2.1]	2 to 10	10 to 30
CO[C@@H]1C[C@H](C(=O)N(c2ccc(S(F)(F)(F)(F)F)cc2)C(C(=O)NC2CCC(F)(F)CC2)c2cccnc2)N(C#N)C1 (single isomer, unassigned) [1154 Isomer 1]	< 2	2 to 10
CN1CC(C(=O)N(c2ccc(S(F)(F)(F)(F)F)cc2)C(C(=O)NC2CCOCC2)c2cccnc2)N(C#N)CC1=O (single isomer, unassigned) [812 Isomer 2]	2 to 10	10 to 30
N#CN1C[C@@H]2CC[C@@H]2[C@@H]1C(=O)N(c1ccc(S(F)(F)(F)(F)F)cc1)C(C(=O)NC1CCC(F)(F)CC1)c1cncc(F)c1 (single isomer, unassigned) [1097 Isomer 1.2]	> 30	> 30
CO[C@@H]1C[C@H](C(=O)N(c2ccc(S(F)(F)(F)(F)F)cc2)C(C(=O)N2CCC3(COC3)C2)c2cccnc2)N(C#N)C1 (single isomer, unassigned) [1174 Isomer 1]	< 2	< 2
CO[C@@H]1C[C@H](C(=O)N(c2ccc(S(F)(F)(F)(F)F)cc2)C(C(=O)NCCC2CCCCN2C(=O)OC(C)(C)C)c2cccnc2)N(C#N)C1 (single isomer, unassigned) [1121b Isomer 2]	< 2	2 to 10
CO[C@@H]1C[C@H](C(=O)N(c2ccc(S(F)(F)(F)(F)F)cc2)C(C(=O)NC(C)C2CCN(C(=O)OC(C)(C)C)C2)c2cccnc2)N(C#N)C1 (single isomer, unassigned) [1293 Isomer 2]	< 2	< 2
CC(C)(C)c1ccc(N(C(=O)[C@H]2CCCN2C#N)C(C(=O)N2CCCC2)c2cccnc2)cc1 (single isomer, unassigned) [947 Isomer 1]	< 2	2 to 10
N#CN1CCOC[C@@H]1C(=O)N(c1ccc(S(F)(F)(F)(F)F)cc1)C(C(=O)NC1CCC(F)(F)CC1)c1cccnc1 (single isomer, unassigned) [1315 Isomer 1]	< 2	< 2
CC(C)(C)c1ccc(N(C(=O)[C@H]2CCCN2C#N)C(C(=O)N2CC[C@H](O)C2)c2cccnc2)cc1 (single isomer, unassigned) [957 Isomer 1]	2 to 10	10 to 30
CO[C@@H]1C[C@H](C(=O)N(c2ccc(S(F)(F)(F)(F)F)cc2)C(C(=O)NC(C)C2CCN(C(=O)OC(C)(C)C)C2)c2cccnc2)N(C#N)C1 (single isomer, unassigned) [1293 Isomer 3]	< 2	2 to 10

SMILES	EC50 (229E Mpro) [µM]	IC50 (HCov OC43) [µM]
C[C@H](C(=O)N(c1ccc(C(C)(C)C)cc1)C(C(=O)NC1CCCCC1)c1cccnc1)N(C)C#N (single isomer, unassigned)	> 30	> 30
CN1CC(C(=O)N(c2ccc(S(F)(F)(F)(F)F)cc2)C(C(=O)NC2CCOCC2)c2cccnc2)N(C#N)CC1=O (single isomer, unassigned) [812 Isomer 1]	< 2	< 2
CO[C@@H]1C[C@H](C(=O)N(c2ccc(S(F)(F)(F)(F)F)cc2)C(C(=O)NC(C)C2CCN(C(=O)OC(C)(C)C)C2)c2cccnc2)N(C#N)C1 (single isomer, unassigned) [1293 Isomer 4]	< 2	2 to 10
N#CN1CCOC[C@@H]1C(=O)N(c1ccc(S(F)(F)(F)(F)F)cc1)C(C(=O)NC1CCC(F)(F)CC1)c1cccnc1 (single isomer, unassigned) [1315 Isomer 2]	< 2	2 to 10
N#CN1C[C@@H]2CC[C@@H]2[C@@H]1C(=O)N(c1ccc(S(F)(F)(F)(F)F)cc1)C(C(=O)NC1CCC(F)(F)CC1)c1cncc(F)c1 (single isomer, unassigned) [1097 Isomer 2.2]	2 to 10	10 to 30
CC(C)(C)OC(=O)NC1CN(C(=O)C(c2cccnc2)N(C(=O)[C@H]2CCCN2C#N)c2ccc(C(C)(C)C)cc2)C1 (single isomer, unassigned) [948 Isomer 1]	2 to 10	2 to 10
CC1(C)CNc2cc(N(C(=O)[C@H]3C[C@@](C)(O)CN3C#N)C(C(=O)NC3CCC(F)(F)CC3)c3cncc(F)c3)ccc21 (single isomer, unassigned) [1131 Isomer 2]	< 2	2 to 10
N#CN1CC(=O)NCC1C(=O)N(c1ccc(S(F)(F)(F)(F)F)cc1)C(C(=O)NC1CCOCC1)c1cccnc1 (single isomer, unassigned) [810 Isomer 1]	< 2	< 2
CC(C)(C)c1ccc(N(C(=O)[C@H]2Cc3ccccc3CN2)C(C(=O)NC2CCCCC2)c2cccnc2)cc1 (single isomer, unassigned)	> 30	> 30
C[C@H](NC(=O)C(c1cnccc1C(F)(F)F)N(C(=O)[C@H]1C[C@@](C)(O)CN1C#N)c1ccc(-c2ccccc2)cc1)c1ccccc1 (single isomer, unassigned) [1351 Isomer 2]	2 to 10	2 to 10
CC(C)(C)c1ccc(N(C(=O)[C@H]2c3ccccc3CN2C#N)C(C(=O)NC2CCCCC2)c2cccnc2)cc1 (single isomer, unassigned) [371a Isomer 2]	> 30	> 30
C[C@@]1(O)C[C@H](C(=O)N(c2ccc(-c3ccccc3)cc2)C(C(=O)NC2CCC(F)(F)CC2)c2cnccc2C(F)(F)F)N(C#N)C1 (single isomer, unassigned) [1349 Isomer 1]	< 2	< 2
N#CN1C[C@H](OC(F)F)C[C@@H]1C(=O)N(c1ccc(S(F)(F)(F)(F)F)cc1)C(C(=O)NC1CCC(F)(F)CC1)c1cncc(F)c1 (single isomer, unassigned) [1088 Isomer 1]	< 2	< 2
CC(C)(C#N)c1ccc(N(C(=O)[C@H]2C[C@@H](O)CN2C#N)C(C(=O)NC2CCCCC2)c2cccnc2)cc1 (single isomer, unassigned) [771 Isomer 2]	2 to 10	10 to 30
O=C(NC1CCC(F)(F)CC1)C(c1cnccc1C(F)(F)F)N(C(=O)c1cnc[nH]1)c1ccc(C2CC2)cc1F (single isomer, unassigned) [1338 Isomer 2]	10 to 30	10 to 30
